Results of unrelated studies side by side (data: NIAID ChemDB).

Common to all: growth or infection tests; agent: Candida albicans

An empty or dashed field is not shown. MIC50, MIC90 and the like: level of inhibition, or share of isolates inhibited. a–b is a range or a potency band. Rows are shuffled and stem from different studies. ECn is the concentration giving n% inhibition of infection, replication or growth.

| smiles | strain | setting | read-out | read by | result |
|---|---|---|---|---|---|
| Cc1c(CN2CCN(C)CC2)cc(-c2ccccc2)n1-c1ccc(F)cc1 | 20 strains | - | Mean MIC | - | 168 µg/mL |
| O[C@](Cn1cncn1)(Cn1cnc(/C=C/c2ccc(OCC(F)(F)C(F)F)cc2)n1)c1ccc(F)cc1F | Isolate 04-33 | - | MIC | - | 2 µg/mL |
| O=C(COc1ccccc1)c1ccccc1 | ATCC 10231 | 48 h | MIC | broth dilution | >125 µg/mL |
| CC(C)C(CCC(C)C1CC[C@@]2(C)C3=C(CCC12C)C1(C)CC[C@H](O)C(C)(C)C1CC3)Sc1ccccc1 | A.10231 | - | MIC90 | - | 100 µg/mL |
| Cc1c(O)cccc1C(=O)N[C@@H](CSc1ccccc1)[C@H](O)CN1C[C@H]2CCCC[C@H]2C[C@H]1C(=O)NC(C)(C)C | I156A | - | MIC | - | 64 µg/mL |
| Clc1nssc1=Nc1ccc2ncccc2c1 | ATCC 10231 | - | MFC99 | - | 16 µg/mL |
| CC(C)C(CCC(C)C1CCC2C3CC=C4C[C@@H](O)CCC4(C)C3CCC12C)NS(=O)(=O)O | A13803 | - | MIC90 | - | 3.13 µg/mL |
| N#CC(=C1CCCC1)c1nc2ccccc2o1 | - | - | MIC | - | <200 µg/mL |
| OC(Cn1cncn1)(Cn1cncn1)c1ccc(F)cc1F | Berkout KCCM 50235 | - | MIC | - | 1.6 µg/mL |
| COc1cc(NC(C)CCCNC(=O)[C@@H](CCCN)NC(=O)[C@H](N)CCCN)c2ncccc2c1 | - | - | MIC | broth dilution | >20 µg/mL |
| Cc1c(CNc2ccccc2)cc(-c2ccc(Cl)cc2)n1-c1ccccc1 | 20 strains | - | Mean MIC | - | >200 µg/mL |
| CC(N)c1nc(C(N)=O)cs1 | 7 isolates | - | MIC | - | >1000 µM |
| O=C(O)CN1C(=O)CSC1c1ccccn1 | - | - | EC50 | broth dilution | 78.61 µM |
| COc1ccc(N2C(=O)CC(c3c(C)nn(-c4ccc(C)cc4)c3Cl)C3=C2CC(C)(C)CC3=O)cc1 | MTCC 227 | - | MIC | broth dilution | 1000 µg/mL |
| Cc1ccc(-c2ccccc2)n1-c1ccccc1 | 20 strains | - | Mean MIC | - | >200 µg/mL |
| Clc1nssc1=Nc1cccc2ccccc12 | ATCC 10231 | - | MFC99 | - | 16 µg/mL |
| Cc1nc2c(=O)n(C(=O)Nc3ccc(Cl)cc3)nc(C)c2s1 | ATCC 10231 | - | MIC | broth dilution | ≥200 µg/mL |
| N#C/C(=N\Nc1ccccc1)c1nc2ccccc2o1 | - | - | MIC | - | >200 µg/mL |
| Cc1c(CNc2ccccc2)cc(-c2ccccc2)n1-c1ccc(Cl)cc1 | 20 strains | - | Mean MIC | - | >200 µg/mL |
| Cc1ccc(C(=O)Nc2cc(C)ccc2O)c(C)c1 | - | - | MIC | - | 12.5 µg/mL |
| O=C(NN1C(=O)/C(=C\c2ccc(Cl)cc2)SC1c1cccc(Br)c1)c1ccc(-c2ccccc2)cc1 | MTCC 8184 | - | MIC | - | 6.25 µg/mL |
| COc1ccc(-c2nc3ccccc3o2)cc1 | - | - | MIC | - | 100 µg/mL |
| Fc1ccc(CCCCn2c3c(c4cc(F)ccc42)CNCC3)cc1 | 579A | - | MIC | - | 1.25 µg/mL |
| Cc1ccc(-n2nc(C)c(C3CC(=O)N(c4ccc(F)cc4)C4=C3C(=O)CCC4)c2Cl)cc1 | MTCC 227 | - | MIC | broth dilution | 500 µg/mL |
| Cn1cnc2c(sc(=S)n2C)c1=O | ATCC 90018 | - | MIC | - | 4 µg/mL |
| Cc1ccc(-c2ccccc2)n1-c1ccc(Cl)cc1Cl | 20 strains | - | Mean MIC | - | >200 µg/mL |
| Cc1nn(-c2ccc(S(N)(=O)=O)cc2)c(=O)c2c(C)noc12 | ATCC 10231 | - | MIC | broth dilution | 50 µg/mL |
| Cc1cc(CN2CCN(C)CC2)c(C)n1-c1ccccc1 | 20 strains | - | Mean MIC | - | >200 µg/mL |
| COc1cc(NC(C)CCCNC(=O)[C@H](CCCCN)NC(=O)[C@@H](N)CCCCN)c2nc(C(C)(C)C)ccc2c1 | - | - | MIC | broth dilution | >20 µg/mL |
| Cc1ccc(N/N=C(\C#N)c2nc3ccccc3o2)cc1 | - | - | MIC | - | <200 µg/mL |
| O=C(COc1ccc(F)cc1)c1ccccc1 | ATCC 10231 | 48 h | MIC | broth dilution | >125 µg/mL |
| COc1cc(NC(C)CCCNC(=O)CCC(NC(=O)[C@@H](N)CCCCN)C(=O)O)c2nc(C(C)(C)C)ccc2c1 | - | - | MIC | broth dilution | >20 µg/mL |
| CC(NC(=O)OC(C)(C)C)c1nc(C(N)=O)cs1 | 7 isolates | - | MIC | - | 220–440 µM |
| COc1cc(NC(C)CCCNC(=O)[C@@H](CCCN)NC(=O)[C@H](N)CCCN)c2nc(C(C)(C)C)ccc2c1 | - | - | MIC | broth dilution | >20 µg/mL |
| CC(NC(=O)OC(C)(C)C)c1nc(C(=O)O)co1 | 7 isolates | - | MIC | - | 428 µM |
| Cc1ccc(-c2ccccc2)n1-c1ccc(Cl)cc1 | 20 strains | - | Mean MIC | - | >200 µg/mL |
| Cc1ccc(C(=O)CSc2nc3c(sc(=S)n3C)c(=O)n2C)cc1 | ATCC 90018 | - | MIC | - | 256 µg/mL |
| O=C(Nc1cccc(Cl)c1)c1ncccc1O | ATCC 44859 | - | MIC | - | 62.5 µM |
| CC(C)C(N)CCC(C)C1CCC2C3CC=C4C[C@@H](O)CCC4(C)C3CCC12C | A13803 | - | MIC90 | - | 0.78 µg/mL |
| Cc1ccc(-c2ccc(Cl)cc2)n1-c1ccccc1 | 20 strains | - | Mean MIC | - | >200 µg/mL |
| Cc1nn(-c2ccc(S(=O)(=O)NC(=O)Nc3ccc(Cl)cc3)cc2)c(=O)c2c(C)noc12 | ATCC 10231 | - | MIC | broth dilution | 100 µg/mL |
| CC(C)C(N)CCC(C)C1CC[C@@]2(C)C3=C(CCC12C)C1(C)CC[C@H](O)C(C)(C)C1CC3 | IFO. 1385 | - | MIC90 | - | 6.25 µg/mL |
| O/N=C(/COc1cccc(F)c1)c1ccccc1 | ATCC 10231 | 48 h | MIC | broth dilution | >125 µg/mL |
| Cc1cc(COc2ccc(Oc3ccc(Cl)cc3)cc2)n(O)c(=O)c1 | TIMM0144 | - | MIC | - | 8 µg/mL |
| COc1ccc(NC(=O)c2ncccc2O)cc1 | ATCC 44859 | - | MIC | - | 250 µM |
| Clc1ccccc1C(c1ccccc1)(c1ccccc1)n1ccnc1 | MTCC 8184 | - | MIC | - | 0.1 µg/mL |
| COc1cc(NC(C)CCCNC(=O)CCC(NC(=O)[C@@H](N)CCCN)C(=O)O)c2nc(C(C)(C)C)ccc2c1 | - | - | MIC | broth dilution | >20 µg/mL |
| O=C(Nc1cc(Cl)ccc1O)c1ccc(F)cc1 | - | - | MIC | - | 25 µg/mL |
| O=C(O)C(Cc1ccccc1)N1C(=O)CSC1c1ccccn1 | - | - | EC50 | broth dilution | 80.64 µM |
| Cc1ccc2cccc(N=c3ssnc3Cl)c2n1 | ATCC 10231 | - | MIC | - | 32 µg/mL |
| CC(C(=O)O)N1C(=O)CSC1c1ccccc1 | - | - | EC50 | broth dilution | 78.12 µM |
| CC(C)(C)OC(=O)N1CCCC1c1nc(C(N)=O)cs1 | 7 isolates | - | MIC | - | 454 µM |
| COc1cc(NC(C)CCCNC(=O)CCC(NC(=O)[C@H](N)CCCCN)C(=O)O)c2nc(C(C)(C)C)ccc2c1 | - | - | MIC | broth dilution | >20 µg/mL |
| Cn1c(SCC(=O)c2ccc(Br)cc2)nc2c(sc(=S)n2C)c1=O | ATCC 90018 | - | MIC | - | 256 µg/mL |
| CCCCCCCCCC#CCCC#CC(=O)O | ATCC 14053 | - | MIC | - | 11.5 µM |
| C=CCSS(=O)CC=C | Clinical Isolate 3072 | - | MIC90 | broth dilution | 0.78 µg/mL |
| IC(I)=C(I)CC1N=CN=N1 | 13 strains | - | MIC90 | - | 0.39 µg/mL |
| Cc1ccc(-c2nc3cc(C)ccc3o2)c(C)c1 | - | - | MIC | - | 25 µg/mL |
| CCOC(=O)C(C#N)C(c1cc2ccc(OC)cc2n2nnnc12)P(=O)(OCC)OCC | MTCC 277 | - | MIC | agar diffusion | 20 µg/mL |
| Cc1nc2c(=O)[nH]nc(C)c2s1 | ATCC 10231 | - | MIC | broth dilution | ≥200 µg/mL |
| O=C(Nc1ccc(Cl)c(Cl)c1)c1ncccc1S | ATCC 44859 | - | MIC | - | >250 µM |
| CCn1c(SCC(=O)c2ccccc2)nc2c(sc(=S)n2C)c1=O | ATCC 90018 | - | MIC | - | 256 µg/mL |
| O=C(O)C(Cc1ccccc1)N1C(=O)CSC1c1c(Cl)cccc1Cl | - | - | EC50 | broth dilution | 22.01 µM |
| CCn1c(SCC(=O)c2ccc(Cl)cc2)nc2c(sc(=S)n2C)c1=O | ATCC 90018 | - | MIC | - | 256 µg/mL |
| Cc1nc2c(=O)n(-c3ccc(S(N)(=O)=O)cc3)nc(C)c2s1 | ATCC 10231 | - | MIC | broth dilution | 100 µg/mL |
| CNC(=O)c1csc(C(NC(=O)OC(C)(C)C)C(C)C)n1 | 7 isolates | - | MIC | - | >409 µM |
| CCCCCCCCCCCCC#CCCC#CC(=O)O | ATCC 60913 | - | MIC | - | 80.2 µM |
| CC(C)(C)OC(=O)N1CCCC1c1nc(C(=O)NN)cs1 | 7 isolates | - | MIC | - | >407 µM |
| Cc1nn(-c2ccccc2)c(Cl)c1C1CC(=O)N(c2ccc(F)cc2)C2=C1C(=O)CC(C)(C)C2 | MTCC 227 | - | MIC | broth dilution | 1000 µg/mL |
| COc1cc(NC(C)CCCNC(=O)[C@@H](CCCCN)NC(=O)[C@H](N)CCCCN)c2nc(C(C)(C)C)ccc2c1 | - | - | MIC | broth dilution | >20 µg/mL |
| Brc1ccc(C=Nc2ccc(C3C=CC=CC=C3)cc2)cc1 | ATCC 24433 | - | MIC | - | >1000 µg/mL |
| Cc1nn(-c2ccccc2)c(Cl)c1C1CC(=O)N(c2ccc(F)cc2)C2=C1C(=O)CCC2 | MTCC 227 | - | MIC | broth dilution | 1000 µg/mL |
| O/N=C(/COc1cccc(Cl)c1)c1ccccc1 | ATCC 10231 | 48 h | MIC | broth dilution | >125 µg/mL |
| O=C(O)CN1C(=O)CSC1c1c(Cl)cccc1Cl | - | - | EC50 | broth dilution | 83.33 µM |
| CCOC(=O)c1csc(C(NC(=O)OC(C)(C)C)C(C)C)n1 | 7 isolates | - | MIC | - | 389 µM |
| CCC(C)C1NC(=O)C(CC(C)C)OC(=O)C(C(C)C)OC(=O)C(NC(=O)C(C(C)CC)N(C)C(C)=O)C(C)OC(=O)C(CC(C)C)N(C)C(=O)C(C)NC(=O)C(C(C)C)N(C)C(=O)C(C(C)O)NC(=O)C(CC(C)C)N(C)C1=O | ATCC 90028 | - | MIC | - | >50 µg/mL |
| O=C(O)CN1C(=O)CSC1c1ccc(Cl)cc1 | - | - | EC50 | broth dilution | 77.51 µM |
| CC[C@@H]1[C@@H](Cn2cncn2)[C@H](COc2ccc(OC(F)(F)F)cc2)CC[C@@]1(C)CCSc1nccn1C | CY3003 | - | MIC | - | 0.5 µg/mL |
| Cc1ccc(NC(=O)c2ccccc2O)cc1 | ATCC 44859 | - | MIC | - | 62.5 µM |
| COc1ccccc1N=c1ssnc1Cl | ATCC 10231 | - | MIC | - | 16 µg/mL |
| O=C(NN1C(=O)/C(=C\c2ccccc2)SC1c1cccc(Br)c1)c1ccc(-c2ccccc2)cc1 | MTCC 8184 | - | MIC | - | 3.12 µg/mL |
| COc1ccc(NC(=O)c2ccccc2O)cc1 | ATCC 44859 | - | MIC | - | >500 µM |
| N#CC1=C(N)N2C(=C(C#N)C1c1ccc(Cl)cc1)Oc1ccccc12 | - | - | MIC | - | >200 µg/mL |
| O/N=C(/COc1ccc(F)cc1)c1ccccc1 | ATCC 10231 | 24 h | MIC | broth dilution | 31.25 µg/mL |
| CC(C)=C[C@H]1C[C@](C)(O)C2C3CCC4[C@@]5(C)CCC[C@](C)(O[C@H]6OC[C@H](O)[C@H](OC7O[C@H](CO)[C@@H](O)[C@H](O)[C@H]7OC(=O)/C=C/c7ccc(OC(=O)CC(=O)O)cc7)[C@H]6O[C@H]6C[C@H](CO)[C@@H](O)[C@@H]6O)C5CC[C@@]4(C)[C@@]34CO[C@@]2(C4)O1 | - | - | MIC | - | >50 µg/mL |